Test results reported in article PMC6784055 (Toxins, 2019).

Amino acid sequences for entries named in this document (tags omitted).
UniProt P04775, whole entry N1662A, looked up: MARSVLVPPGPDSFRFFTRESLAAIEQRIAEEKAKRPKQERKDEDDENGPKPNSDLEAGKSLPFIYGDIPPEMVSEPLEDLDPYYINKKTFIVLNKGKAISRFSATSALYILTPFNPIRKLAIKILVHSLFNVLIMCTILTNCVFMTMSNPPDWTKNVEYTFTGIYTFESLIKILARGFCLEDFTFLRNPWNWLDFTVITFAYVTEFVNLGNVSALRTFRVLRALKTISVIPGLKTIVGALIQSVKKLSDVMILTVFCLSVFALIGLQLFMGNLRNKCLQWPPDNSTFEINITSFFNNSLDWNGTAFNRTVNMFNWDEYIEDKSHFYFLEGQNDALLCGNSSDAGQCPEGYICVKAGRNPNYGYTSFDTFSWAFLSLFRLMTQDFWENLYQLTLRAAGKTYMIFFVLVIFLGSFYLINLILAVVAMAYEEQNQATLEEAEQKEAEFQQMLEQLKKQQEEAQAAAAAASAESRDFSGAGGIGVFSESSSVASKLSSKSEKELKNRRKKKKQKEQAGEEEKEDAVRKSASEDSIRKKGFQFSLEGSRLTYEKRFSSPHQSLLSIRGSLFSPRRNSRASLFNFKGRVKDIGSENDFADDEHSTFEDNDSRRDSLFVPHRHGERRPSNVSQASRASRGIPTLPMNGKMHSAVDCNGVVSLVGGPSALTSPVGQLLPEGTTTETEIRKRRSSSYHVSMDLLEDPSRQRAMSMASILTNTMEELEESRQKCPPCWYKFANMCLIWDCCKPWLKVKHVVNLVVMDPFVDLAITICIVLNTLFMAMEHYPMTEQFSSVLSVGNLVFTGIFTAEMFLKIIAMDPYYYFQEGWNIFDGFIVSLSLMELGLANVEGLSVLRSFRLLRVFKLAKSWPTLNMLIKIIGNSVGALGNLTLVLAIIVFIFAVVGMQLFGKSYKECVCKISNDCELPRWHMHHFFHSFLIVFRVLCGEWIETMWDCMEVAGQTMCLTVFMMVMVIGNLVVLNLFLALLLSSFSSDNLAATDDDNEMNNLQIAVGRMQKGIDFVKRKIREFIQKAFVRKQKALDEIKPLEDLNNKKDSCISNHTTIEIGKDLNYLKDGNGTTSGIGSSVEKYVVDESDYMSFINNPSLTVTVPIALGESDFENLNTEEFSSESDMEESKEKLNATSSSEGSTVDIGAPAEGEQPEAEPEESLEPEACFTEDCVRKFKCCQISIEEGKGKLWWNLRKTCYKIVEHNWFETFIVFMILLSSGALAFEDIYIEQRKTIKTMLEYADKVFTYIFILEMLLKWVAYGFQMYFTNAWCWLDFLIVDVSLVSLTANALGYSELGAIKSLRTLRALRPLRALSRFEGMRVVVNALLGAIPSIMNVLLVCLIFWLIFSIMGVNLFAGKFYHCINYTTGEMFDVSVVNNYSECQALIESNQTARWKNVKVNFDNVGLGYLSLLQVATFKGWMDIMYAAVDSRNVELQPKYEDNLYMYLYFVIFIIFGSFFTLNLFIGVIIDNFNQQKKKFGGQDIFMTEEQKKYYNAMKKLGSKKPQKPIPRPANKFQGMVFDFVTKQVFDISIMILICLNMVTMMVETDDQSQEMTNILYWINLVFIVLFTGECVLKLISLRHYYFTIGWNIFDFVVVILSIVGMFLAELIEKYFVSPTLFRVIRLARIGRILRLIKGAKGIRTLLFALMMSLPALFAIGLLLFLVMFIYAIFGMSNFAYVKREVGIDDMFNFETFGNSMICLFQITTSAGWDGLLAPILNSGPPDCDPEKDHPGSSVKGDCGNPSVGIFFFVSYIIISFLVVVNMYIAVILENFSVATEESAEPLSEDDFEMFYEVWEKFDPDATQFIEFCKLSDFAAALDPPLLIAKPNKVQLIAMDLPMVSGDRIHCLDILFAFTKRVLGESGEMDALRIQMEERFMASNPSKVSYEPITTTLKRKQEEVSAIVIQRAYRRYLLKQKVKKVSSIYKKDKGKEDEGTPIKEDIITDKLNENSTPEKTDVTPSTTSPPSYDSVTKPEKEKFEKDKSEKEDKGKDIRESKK
UniProt P04775, whole entry, looked up: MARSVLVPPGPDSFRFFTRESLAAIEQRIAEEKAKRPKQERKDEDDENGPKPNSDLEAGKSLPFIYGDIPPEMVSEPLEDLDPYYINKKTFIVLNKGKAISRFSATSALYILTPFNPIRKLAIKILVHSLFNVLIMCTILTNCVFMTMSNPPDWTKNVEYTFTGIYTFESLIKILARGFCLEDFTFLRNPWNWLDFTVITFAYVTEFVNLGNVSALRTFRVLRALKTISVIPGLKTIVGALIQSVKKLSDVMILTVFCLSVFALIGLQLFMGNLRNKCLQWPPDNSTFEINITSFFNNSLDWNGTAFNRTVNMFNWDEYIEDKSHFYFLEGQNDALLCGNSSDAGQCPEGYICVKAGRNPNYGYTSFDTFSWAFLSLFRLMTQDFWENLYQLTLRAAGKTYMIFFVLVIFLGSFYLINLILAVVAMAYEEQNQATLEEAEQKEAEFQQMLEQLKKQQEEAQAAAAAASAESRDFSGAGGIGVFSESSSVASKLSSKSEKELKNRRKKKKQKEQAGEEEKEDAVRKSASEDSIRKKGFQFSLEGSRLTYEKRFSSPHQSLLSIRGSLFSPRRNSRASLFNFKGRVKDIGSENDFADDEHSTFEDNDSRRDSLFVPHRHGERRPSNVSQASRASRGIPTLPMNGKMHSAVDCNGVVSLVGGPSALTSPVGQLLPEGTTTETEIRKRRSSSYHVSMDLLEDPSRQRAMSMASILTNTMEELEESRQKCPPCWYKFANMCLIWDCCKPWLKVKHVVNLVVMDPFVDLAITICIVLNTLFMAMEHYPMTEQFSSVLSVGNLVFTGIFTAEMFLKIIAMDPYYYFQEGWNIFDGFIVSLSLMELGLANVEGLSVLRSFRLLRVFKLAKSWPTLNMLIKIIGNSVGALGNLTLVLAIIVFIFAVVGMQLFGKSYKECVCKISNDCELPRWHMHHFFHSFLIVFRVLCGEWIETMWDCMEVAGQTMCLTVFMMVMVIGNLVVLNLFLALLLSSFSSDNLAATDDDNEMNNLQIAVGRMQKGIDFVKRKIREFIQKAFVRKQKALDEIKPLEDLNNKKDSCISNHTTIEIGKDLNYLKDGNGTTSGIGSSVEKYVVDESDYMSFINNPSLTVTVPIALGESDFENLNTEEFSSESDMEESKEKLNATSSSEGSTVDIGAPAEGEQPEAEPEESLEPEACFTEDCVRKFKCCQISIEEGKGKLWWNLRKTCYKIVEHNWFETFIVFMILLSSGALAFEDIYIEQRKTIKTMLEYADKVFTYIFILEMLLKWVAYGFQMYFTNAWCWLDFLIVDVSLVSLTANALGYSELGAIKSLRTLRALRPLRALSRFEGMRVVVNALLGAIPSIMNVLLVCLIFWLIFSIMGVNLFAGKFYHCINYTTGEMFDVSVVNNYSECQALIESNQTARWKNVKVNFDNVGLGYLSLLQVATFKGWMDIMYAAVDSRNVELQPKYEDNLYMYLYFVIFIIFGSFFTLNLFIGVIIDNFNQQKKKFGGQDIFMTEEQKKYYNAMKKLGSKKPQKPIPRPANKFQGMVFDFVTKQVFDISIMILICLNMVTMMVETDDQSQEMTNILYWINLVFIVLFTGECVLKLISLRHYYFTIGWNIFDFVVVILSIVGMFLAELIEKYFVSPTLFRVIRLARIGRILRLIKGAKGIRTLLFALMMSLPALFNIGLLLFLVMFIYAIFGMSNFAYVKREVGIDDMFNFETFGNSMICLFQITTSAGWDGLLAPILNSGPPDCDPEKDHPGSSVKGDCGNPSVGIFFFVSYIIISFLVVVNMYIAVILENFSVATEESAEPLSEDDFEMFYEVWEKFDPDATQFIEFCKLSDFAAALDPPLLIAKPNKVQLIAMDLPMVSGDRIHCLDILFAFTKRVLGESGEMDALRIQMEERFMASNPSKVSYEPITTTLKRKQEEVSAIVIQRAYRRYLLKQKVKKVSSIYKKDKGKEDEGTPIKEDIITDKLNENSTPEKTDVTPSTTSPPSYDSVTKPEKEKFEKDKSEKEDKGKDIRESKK
UniProt P04775, whole entry I1772A, looked up: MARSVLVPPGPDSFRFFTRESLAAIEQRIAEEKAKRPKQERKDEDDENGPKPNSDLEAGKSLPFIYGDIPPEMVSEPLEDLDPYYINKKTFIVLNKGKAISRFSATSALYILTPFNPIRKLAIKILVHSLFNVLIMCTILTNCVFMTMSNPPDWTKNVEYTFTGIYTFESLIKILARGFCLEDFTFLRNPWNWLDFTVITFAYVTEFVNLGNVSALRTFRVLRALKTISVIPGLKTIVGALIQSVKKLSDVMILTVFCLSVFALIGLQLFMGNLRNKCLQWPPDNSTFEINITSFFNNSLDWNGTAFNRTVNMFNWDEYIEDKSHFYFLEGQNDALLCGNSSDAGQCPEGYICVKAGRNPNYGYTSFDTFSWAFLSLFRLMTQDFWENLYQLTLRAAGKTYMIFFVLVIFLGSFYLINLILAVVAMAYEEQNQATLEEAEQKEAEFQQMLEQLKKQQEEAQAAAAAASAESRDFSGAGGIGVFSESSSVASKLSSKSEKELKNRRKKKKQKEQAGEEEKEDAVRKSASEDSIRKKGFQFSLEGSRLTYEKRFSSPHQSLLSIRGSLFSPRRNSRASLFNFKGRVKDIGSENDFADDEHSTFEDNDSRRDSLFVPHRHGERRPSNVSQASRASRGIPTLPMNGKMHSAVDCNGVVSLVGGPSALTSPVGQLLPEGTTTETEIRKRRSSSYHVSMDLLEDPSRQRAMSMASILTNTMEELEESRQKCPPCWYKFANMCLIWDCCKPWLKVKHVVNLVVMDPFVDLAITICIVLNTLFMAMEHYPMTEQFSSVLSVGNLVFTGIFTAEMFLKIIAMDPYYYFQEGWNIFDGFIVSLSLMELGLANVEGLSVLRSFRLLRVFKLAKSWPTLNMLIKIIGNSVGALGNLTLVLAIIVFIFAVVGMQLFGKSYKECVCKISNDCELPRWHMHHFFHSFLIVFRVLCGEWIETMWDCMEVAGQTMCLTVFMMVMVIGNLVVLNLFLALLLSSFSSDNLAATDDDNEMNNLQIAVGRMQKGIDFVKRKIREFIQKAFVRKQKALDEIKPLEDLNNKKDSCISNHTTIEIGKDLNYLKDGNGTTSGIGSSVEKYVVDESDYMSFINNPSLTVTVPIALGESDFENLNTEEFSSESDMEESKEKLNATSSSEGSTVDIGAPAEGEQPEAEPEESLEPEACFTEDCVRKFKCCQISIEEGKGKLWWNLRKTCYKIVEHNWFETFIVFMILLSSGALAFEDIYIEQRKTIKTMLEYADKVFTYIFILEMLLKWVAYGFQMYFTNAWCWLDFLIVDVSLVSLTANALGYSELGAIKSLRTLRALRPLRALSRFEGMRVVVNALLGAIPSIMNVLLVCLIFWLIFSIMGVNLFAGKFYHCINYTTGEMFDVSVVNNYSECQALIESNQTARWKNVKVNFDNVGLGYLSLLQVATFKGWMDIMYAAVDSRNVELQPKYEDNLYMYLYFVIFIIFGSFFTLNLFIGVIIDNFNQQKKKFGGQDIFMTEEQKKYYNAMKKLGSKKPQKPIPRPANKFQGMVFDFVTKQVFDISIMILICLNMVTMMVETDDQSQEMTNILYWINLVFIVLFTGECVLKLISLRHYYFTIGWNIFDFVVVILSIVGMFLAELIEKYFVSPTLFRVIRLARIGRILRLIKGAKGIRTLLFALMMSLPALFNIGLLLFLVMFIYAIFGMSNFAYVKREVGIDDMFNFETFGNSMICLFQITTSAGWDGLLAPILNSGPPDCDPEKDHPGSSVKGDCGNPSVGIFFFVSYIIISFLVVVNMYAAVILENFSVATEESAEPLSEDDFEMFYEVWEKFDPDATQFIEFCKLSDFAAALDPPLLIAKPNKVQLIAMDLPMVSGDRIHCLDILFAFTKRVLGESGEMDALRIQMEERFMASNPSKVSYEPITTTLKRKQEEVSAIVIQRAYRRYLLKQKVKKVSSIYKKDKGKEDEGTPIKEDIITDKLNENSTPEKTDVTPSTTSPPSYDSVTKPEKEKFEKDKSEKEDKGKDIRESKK

Tests used:
Nav1.2 Y1684A = assay: Saturation binding, IVS5 alanine mutant
Nav1.2 L1666A = assay: Saturation binding, IVS5 alanine mutant
Nav1.2 L1669A = assay: Saturation binding, IVS5 alanine mutant
Nav1.2 G1678A = assay: Saturation binding, IVS5 alanine mutant
Nav1.2 G1664A = assay: Saturation binding, IVS5 alanine mutant
Nav1.2 N1662A = Nav1.2 N1662A (Rattus norvegicus, UniProt P04775, N1662A); assay: Saturation binding, IVS5 alanine mutant; conditions: protein detected in immunoblot with anti-SP20
Nav1.2 V1670A = assay: Saturation binding, IVS5 alanine mutant
Nav1.2 L1665A = assay: Saturation binding, IVS5 alanine mutant
Nav1.2 I1663A = assay: Saturation binding, IVS5 alanine mutant
wild type Nav1.2 = wild type Nav1.2 (Rattus norvegicus, UniProt P04775); assay: Saturation binding of [42-^3H]-PbTx3 to membrane fractions of transfected tsA-201 cells, wild type; conditions: read-out: dissociation constant (Kd); wild type Nav1.2 in tsA-201 membrane fractions, 3 h incubation, one-site model; mean ± SEM, n = 30
Nav1.2 E1688A = assay: Saturation binding, IVS5-SS1 loop alanine mutant
Nav1.2 F1697A = assay: Saturation binding, IVS5-SS1 loop alanine mutant
Nav1.2 I1772A = Nav1.2 I1772A (Rattus norvegicus, UniProt P04775, I1772A); assay: Saturation binding, IVS6 alanine mutant
Nav1.2 Y1771A = Nav1.2 Y1771A (Rattus norvegicus, UniProt P04775, Y1771A); assay: Saturation binding, IVS6 alanine mutant
Nav1.2 S1758A = assay: Saturation binding, IVS6 alanine mutant
Nav1.2 I1760A = Nav1.2 I1760A (Rattus norvegicus, UniProt P04775, I1760A); assay: Saturation binding, IVS6 alanine mutant
Nav1.2 I1761 = Nav1.2 I1761 (Rattus norvegicus, UniProt P04775, I1761A); assay: Saturation binding, IVS6 alanine mutant
Nav1.2 F1756A = Nav1.2 F1756A (Rattus norvegicus, UniProt P04775, F1756A); assay: Saturation binding, IVS6 alanine mutant
Nav1.2 F414A = assay: Saturation binding, IS6 alanine mutant
Nav1.2 V408A = assay: Saturation binding, IS6 alanine mutant
Nav1.2 G412A = assay: Saturation binding, IS6 alanine mutant
Nav1.2 L407A = assay: Saturation binding, IS6 alanine mutant
Nav1.2 Y415A = assay: Saturation binding, IS6 alanine mutant
Nav1.2 M402A = assay: Saturation binding, IS6 alanine mutant
Nav1.4 = Nav1.4 (Homo sapiens, UniProt P35499); assay: Saturation binding of [42-^3H]-PbTx3 to transiently expressed Nav1.4; conditions: mean ± SEM, n = 5
Nav1.5 [1] = molecular target: T1, Nav1.5 (Homo sapiens, UniProt Q14524); assay: Saturation binding of [42-^3H]-PbTx3 to transiently expressed Nav1.5
Nav1.2 = Nav1.2 (Rattus norvegicus, UniProt P04775); assay: [42-^3H]-PbTx3 dissociation kinetics, Nav1.2; conditions: 4 °C, dissociation started with 600 nM PbTx1
Nav1.5 [2] = molecular target: T1, Nav1.5; assay: [42-^3H]-PbTx3 dissociation kinetics, Nav1.5

With `[3H]C(O)C(=C)C[C@@H]1C[C@H](O)[C@]2(C)O[C@@H]3C[C@@H]4O[C@@H]5C[C@]6(C)O[C@]7(C)CC[C@@H]8O[C@@H]9C[C@]%10(C)O[C@@H]%11C(C)=CC(=O)O[C@H]%11C[C@H]%10O[C@H]9C[C@@H](C)[C@H]8O[C@H]7C[C@H]6O[C@@]5(C)C/C=C\[C@H]4O[C@H]3C[C@H]2O1` (stereo partly drawn) the “increase of affinity vs WT” value (Nav1.2 Y1684A) was “approximately 2 fold”, the “Kd greater than WT” value (Nav1.2 L1666A) was 2–3 fold and the “increase of affinity vs WT” value (Nav1.2 L1669A) was “approximately 2 fold”. The “increase of affinity vs WT” value (Nav1.2 G1678A) was “approximately 2 fold”, the “Kd greater than WT” value (Nav1.2 G1664A) was 2–3 fold and the “binding to mutant channel” value (Nav1.2 N1662A) was “did not bind”. For the same molecule, the “increase of affinity vs WT” value (Nav1.2 V1670A) was “approximately 2 fold”, the “Kd greater than WT” value (Nav1.2 L1665A) was 2–3 fold and the “Kd greater than WT” value (Nav1.2 I1663A) was 2–3 fold. The Kd (wild type Nav1.2) was 2.4 nM, the “increase of binding affinity vs WT” value (Nav1.2 E1688A) was “approximately 2 fold” and the “increase of binding affinity vs WT” value (Nav1.2 F1697A) was “approximately 2 fold”. The “change of Kd vs WT” value (Nav1.2 I1772A) was “increase in Kd”, the “change of Kd vs WT” value (Nav1.2 Y1771A) was “increase in Kd” and the “decrease of Kd vs WT” value (Nav1.2 S1758A) was 2 fold. For the same molecule, the “change of Kd vs WT” value (Nav1.2 I1760A) was “increase in Kd”, the “change of Kd vs WT” value (Nav1.2 I1761) was “increase in Kd” and the “change of Kd vs WT” value (Nav1.2 F1756A) was “increase in Kd”. The “decrease in Kd vs wild type” value (Nav1.2 F414A) was 2–3 fold, the “increase of Kd vs wild type” value (Nav1.2 V408A) was 2–3 fold and the “decrease in Kd vs wild type” value (Nav1.2 G412A) was 2–3 fold. The “increase of Kd vs wild type” value (Nav1.2 L407A) was 2–3 fold, the “decrease in Kd vs wild type” value (Nav1.2 Y415A) was 2–3 fold and the “increase of Kd vs wild type” value (Nav1.2 M402A) was 2–3 fold. The Kd (Nav1.4) was 1.8 nM, the Kd (Nav1.5 [1]; Nav1.5, mean ± SEM, n = 6) was 12 nM and the “increase of Kd for Nav1.5 relative to Nav1.2” value (Nav1.5 [1]; Nav1.5 vs Nav1.2) was “approximately 5 fold”. For the same molecule, the “rate constant for toxin dissociation (kd-1.2)” value (Nav1.2) was 0.000617 ± 0.000167 s⁻¹, the “rate constant for toxin dissociation (kd-1.5)” value (Nav1.5 [2]; Nav1.5, 4 °C, dissociation started with 600 nM PbTx1) was 0.00217 ± 0.00033 s⁻¹ and the “dissociation from Nav1.5 faster than from Nav1.2” value (Nav1.5 [2]; Nav1.5 vs Nav1.2) was “about 4 fold”.
